Data source: PubChem BioAssay AID1259414 (Drosophila RNAi Screening Center, 2018)
Test: 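Host factors increasing or decreasing Wolbachia levels in cultured fly cells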 (primary screen). Cell system: Drosophila JW18 cells infected with Wolbachia. Reagents: long dsRNA against Drosophila genes, 0.25 µg dsRNA per well of a 384-well plate. Duration: 5 days. Treatment: cells persistently infected with Wolbachia before knock-down; no added drug. Detection: 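Imaged fluorescence in situ signal for Wolbachia 23S rRNA per DAPI-counted host cell, given as a robust z-score within each plate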. Direction: Wolbachia per cell robust z: higher = more Wolbachia per host cell than the plate typical. Active means: 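Hit when robust z is 1.5 or more, or -1.5 or less, in at least two of three replicates; excludes dsRNAs with several or no targets, genes not expressed in JW18 and well A1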.
The screen tested about 24,000 reagents; shown is an unselected part of those that have a named target and a result. Of all reagents, about 1,210 (5%) are marked active. 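Inactive calls also include excluded dsRNAs with several or no targets, genes unexpressed in JW18, and well A1, regardless of score.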 The numbers tell different reagents against one gene apart. No sequences are given here.

| predicted target | reagent | Wolbachia per cell robust z, rep 1 | Wolbachia per cell robust z, rep 2 | Wolbachia per cell robust z, rep 3 | Outcome |
| --- | --- | --- | --- | --- | --- |
| Lpt | 1 | 0.579 | 0.614 | 0.513 | inactive |
| Lpt | 2 | 1.02 | 0.0138 | 0.769 | inactive |
| CG34189 | 1 | 0.623 | -0.597 | -0.201 | inactive |
| CG6398 | 1 | 0.729 | 0.127 | -0.194 | inactive |
| CG13455 | 1 | 0.235 | -2.12 | 0.331 | inactive |
| alphaTub84B | 1 | 2.14 | 0.764 | -0.144 | inactive |
| alphaTub84B | 2 | 3.2 | 3.74 | 3.29 | active |
| CG5114 | 1 | 0.408 | -8.35 | 0.736 | inactive |
| asRNA:CR17025 | 1 | 1.05 | 0.955 | 0.305 | inactive |
| Pp4-19C | 1 | 0.377 | 0.0421 | -0.149 | inactive |
| Pp4-19C | 2 | 1.33 | 0.649 | 1.23 | inactive |
| Pp4-19C | 3 | 0.221 | 0.526 | -1.03 | inactive |
| Pp4-19C | 4 | 1 | 2.45 | 1.44 | inactive |
| CG15425 | 1 | -2.68 | 0.171 | -0.895 | inactive |
| CG15425 | 2 | 0.422 | 0.735 | 1.48 | inactive |
| CG15308 | 1 | -1.9 | -1.28 | -2.11 | inactive |
| CG13028 | 1 | 0.358 | 0.725 | -0.0645 | inactive |
| ana3 | 1 | -1.14 | -0.825 | -0.13 | inactive |
| ana3 | 2 | 0.184 | 0.216 | 1.04 | inactive |
| CG32313 | 1 | -0.535 | -0.114 | 0.0102 | inactive |
| tut | 1 | -0.0244 | 0.468 | -1.28 | inactive |
| eIF3j | 1 | -0.883 | 0.382 | 0.433 | inactive |
| CG4133 | 1 | -0.135 | 0.00121 | 0.219 | inactive |
| mbm | 1 | 1.13 | 1.66 | 0.646 | inactive |
| hll | 1 | 0.502 | 0.277 | 0.786 | inactive |
| Gr22c | 1 | 0.461 | 0.789 | -0.62 | inactive |
| Gr22c | 2 | -0.873 | 0.188 | -2.68 | inactive |
| CG17010 | 1 | -0.0247 | -0.681 | -0.0698 | inactive |
| CG17010 | 2 | 0.257 | -0.636 | -0.0685 | inactive |
| CG8564 | 1 | 0.0618 | 0.193 | -0.538 | inactive |
| CG2577 | 1 | 0.901 | 0.00722 | 0.356 | inactive |
| CG2577 | 2 | -1.36 | -0.137 | 0.165 | inactive |
| CG2577 | 3 | 0.11 | 1.24 | 2.03 | inactive |
| Acox3 | 1 | 1.67 | 1.48 | 0.944 | inactive |
| Acox3 | 2 | 0.701 | -1.19 | -0.27 | inactive |
| CG17364 | 1 | -4.27 | 1.42 | 0.16 | inactive |
| CG17364 | 2 | 1.1 | -3.89 | 0.696 | inactive |
| CG17364 | 3 | -1.96 | 0.571 | 1.18 | inactive |
| CG17364 | 4 | 0.53 | 1.26 | 0.451 | inactive |

10 entries from above, reformatted:
ana3 #1
- Wolbachia per cell robust z, rep 1: -1.14
- Wolbachia per cell robust z, rep 2: -0.825
- Wolbachia per cell robust z, rep 3: -0.13
- Outcome: inactive

ana3 #2
- Wolbachia per cell robust z, rep 1: 0.184
- Wolbachia per cell robust z, rep 2: 0.216
- Wolbachia per cell robust z, rep 3: 1.04
- Outcome: inactive

CG32313
- Wolbachia per cell robust z, rep 1: -0.535
- Wolbachia per cell robust z, rep 2: -0.114
- Wolbachia per cell robust z, rep 3: 0.0102
- Outcome: inactive

tut
- Wolbachia per cell robust z, rep 1: -0.0244
- Wolbachia per cell robust z, rep 2: 0.468
- Wolbachia per cell robust z, rep 3: -1.28
- Outcome: inactive

eIF3j
- Wolbachia per cell robust z, rep 1: -0.883
- Wolbachia per cell robust z, rep 2: 0.382
- Wolbachia per cell robust z, rep 3: 0.433
- Outcome: inactive

CG4133
- Wolbachia per cell robust z, rep 1: -0.135
- Wolbachia per cell robust z, rep 2: 0.00121
- Wolbachia per cell robust z, rep 3: 0.219
- Outcome: inactive

mbm
- Wolbachia per cell robust z, rep 1: 1.13
- Wolbachia per cell robust z, rep 2: 1.66
- Wolbachia per cell robust z, rep 3: 0.646
- Outcome: inactive

hll
- Wolbachia per cell robust z, rep 1: 0.502
- Wolbachia per cell robust z, rep 2: 0.277
- Wolbachia per cell robust z, rep 3: 0.786
- Outcome: inactive

Gr22c #1
- Wolbachia per cell robust z, rep 1: 0.461
- Wolbachia per cell robust z, rep 2: 0.789
- Wolbachia per cell robust z, rep 3: -0.62
- Outcome: inactive

Gr22c #2
- Wolbachia per cell robust z, rep 1: -0.873
- Wolbachia per cell robust z, rep 2: 0.188
- Wolbachia per cell robust z, rep 3: -2.68
- Outcome: inactive

Further entries follow:
| predicted target | reagent | Wolbachia per cell robust z, rep 1 | Wolbachia per cell robust z, rep 2 | Wolbachia per cell robust z, rep 3 | Outcome |
| --- | --- | --- | --- | --- | --- |
| CG8818 | 1 | -0.758 | -0.528 | 0 | inactive |
| CG8818 | 2 | 0.061 | -0.685 | -0.106 | inactive |
| viaf | 1 | 0.0666 | -0.233 | -0.661 | inactive |
| mt:srRNA | 1 | -1.49 | -0.38 | 0.302 | inactive |
| CG43102 | 1 | -2.21 | 0.76 | 1.39 | inactive |
| CG43102 | 2 | 0.508 | 0.736 | 0.328 | inactive |
| CG43102 | 3 | -0.915 | -0.0939 | -1.52 | inactive |
| Cog3 | 1 | -1.51 | 0.491 | -0.643 | inactive |
| CG17568 | 1 | -0.404 | -0.153 | 0.691 | inactive |
| Vps33B | 1 | -0.489 | 0.75 | 0.752 | inactive |
| Spec2 | 1 | 0.0765 | 0.0401 | -0.839 | inactive |
| Spec2 | 2 | -0.435 | -1.12 | 0.0594 | inactive |
| CG11714 | 1 | 0.615 | -1.16 | -0.682 | inactive |
| trio | 1 | 0.12 | 1 | 1.14 | inactive |
| trio | 2 | 0.789 | 1.24 | 1.32 | inactive |
| trio | 3 | 1.63 | 0.544 | -1.01 | inactive |
| trio | 4 | 0.136 | -0.211 | 0.401 | inactive |
| CG11350 | 1 | -0.674 | -0.501 | -1.22 | inactive |
| CG11350 | 2 | -1.75 | -0.191 | -3.89 | inactive |
| Alp5 | 1 | -12.3 | -8.61 | -3.09 | inactive |
| Alp5 | 2 | 0.059 | -2.61 | 0.132 | inactive |
| Alp5 | 3 | 0.163 | 0.316 | 0.386 | inactive |
| Rbfox1 | 1 | -3.24 | 0.525 | 0.356 | inactive |
| Rbfox1 | 2 | -0.599 | -0.526 | -1.12 | inactive |
| Rbfox1 | 3 | 0.041 | -1.52 | -2.45 | active |
| Rbfox1 | 4 | -1.21 | -1.68 | -0.434 | inactive |
| CG9411 | 1 | 0.234 | 0.202 | -2.77 | inactive |
| CG9411 | 2 | 0.803 | -2.19 | 0.00494 | inactive |
| tous | 1 | 1.72 | -2.5 | 0.758 | inactive |
